Data source: PubChem BioAssay AID504761 (Drosophila RNAi Screening Center, 2011)

- Assay: 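Insect host genes that dengue virus relies on to spread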 (primary screen)
- Cell system: D.Mel-2 cells from Drosophila
- Reagents: long dsRNA against Drosophila genes
- Treatment: infection with dengue virus type 2; dose and infection time not stated
- Read-out: 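Per well on two replicate plates, imaging gave the percent of cells positive for viral envelope protein, ranked by infection, and a nuclear count of cells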
- Direction: infection score: higher = more virus-infected cells; cell count: higher = more cells in the well
- Active means: 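Low infection ranks in the two replicates (chance level up to 0.065) followed by a retest with a 1.5-fold or larger significant decrease, p below 0.05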
- Meaning of the calls: active = confirmed: knock-down lowers infection; inactive = not picked or not confirmed
The deposit covers about 22,000 reagents; shown is a random part of those with a known target gene and a result. Of all reagents, 116 (0.52%) got an active call. 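Calls depend on retest data that are not deposited; infection was ranked per plate without normalising between plates; the unit of the infection score is not given.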 The raw values are shown without normalisation. Entries without a mark were called inactive. The numbers tell different reagents against one gene apart. A plus sign joins genes that one reagent is predicted to hit. Not stated in the record: the amount of reagent, the time to read-out.

The first 3 entries as a preview:
| gene | reagent | infection score, replicate 1 | infection score, replicate 2 | cell count, replicate 1 | cell count, replicate 2 |
| --- | --- | --- | --- | --- | --- |
| CG17717 | 1 | 1.55 | 1.65 | 6579 | 6612 |
| CG7798 | 1 | 13.7 | 6.98 | 5986 | 6564 |
| TwdlO | 1 | – | 10.3 | 350 | 1454 |

Main list, repeating the preview:
| gene | reagent | infection score, replicate 1 | infection score, replicate 2 | cell count, replicate 1 | cell count, replicate 2 |
| --- | --- | --- | --- | --- | --- |
| CG17717 | 1 | 1.55 | 1.65 | 6579 | 6612 |
| CG7798 | 1 | 13.7 | 6.98 | 5986 | 6564 |
| TwdlO | 1 | – | 10.3 | 350 | 1454 |
| CG11588 | 1 | 0.28 | 1.03 | 6823 | 3023 |
| CG11588 | 2 | 3.24 | 5.17 | 5860 | 6339 |
| KdelR | 1 | 5.53 | 1.46 | 3328 | 5566 |
| Cyp4g1 | 1 | 3.22 | 7.18 | 6521 | 6528 |
| Cyp4g1 | 2 | 14.2 | 9.44 | 6192 | 5636 |
| CG13196 | 1 | 5.67 | 13.5 | 6719 | 6192 |
| Anp | 1 | 8.02 | 14.4 | 6667 | 4842 |
| CG5968 | 1 | 2.09 | 1.16 | 6072 | 6281 |
| sinah | 1 | 3.56 | 12.3 | 6851 | 6359 |
| sinah | 2 | 2.74 | 3.15 | 6428 | 5994 |
| CG18735 | 1 | 0.55 | 3.67 | 6787 | 7333 |
| CG18735 | 2 | 10.1 | 13.5 | 6934 | 6608 |
| grnd | 1 | 7.37 | 5.58 | 2591 | 6178 |
| CG13630 | 1 | 2.78 | 4.93 | 6654 | 6288 |
| msd1 | 1 | 2.47 | 7.39 | 6811 | 6471 |
| CG15498 | 1 | – | 11.4 | 367 | 6781 |
| CG15128 | 1 | 5.13 | 4.11 | 5892 | 5961 |
| ZC3H3 | 1 | 5.47 | 5.87 | 5884 | 5999 |
| ZC3H3 | 2 | – | – | 352 | 377 |
| CG10068 | 1 | 2.72 | 8.89 | 5956 | 6195 |
| Gr98c | 1 | 9.05 | 3.41 | 6351 | 6941 |
| Gr98c | 2 | 0.6 | 10.1 | 7137 | 6076 |
| lncRNA:noe | 1 | 3.94 | 18.6 | 6800 | 6170 |
| lncRNA:noe | 2 | 1.39 | 0.61 | 5887 | 6249 |
| AspRS-m | 1 | 5.05 | 2.91 | 6117 | 6669 |
| CG17593 | 1 | 9.22 | 4.41 | 5931 | 5936 |
| CG17593 | 2 | 3.33 | 12.7 | 6495 | 3578 |
| D1 | 1 | 2.47 | 4.01 | 6245 | 6750 |
| snRNA:U1:95Cc + snRNA:U1:95Cb | 1 | 4.08 | 3.55 | 6007 | 6389 |
| brun | 1 | 14.6 | 8.8 | 5986 | 6525 |
| CG14676 | 1 | 1.91 | 4.24 | 6713 | 6342 |
| CG1360 | 1 | 19.9 | 8.88 | 5250 | 6478 |
| CG1360 | 2 | – | 7.97 | 240 | 1606 |
| Cep164 | 1 | 0.96 | 2.42 | 521 | 6601 |
| Nsf2 | 1 | 1.61 | 2.3 | 6843 | 6687 |
| Nsf2 | 2 | 6.4 | 11.4 | 6485 | 5900 |
| twz | 1 | 5.48 | 5.13 | 6697 | 6605 |
| twz | 2 | 1.33 | 9.91 | 6145 | 5986 |
| CG14020 | 1 | 2.07 | 1.51 | 6579 | 6540 |
| Cnx99A | 1 | 9.54 | 8.57 | 5878 | 6287 |
| Su(var)3-9 | 1 | 6.67 | 32.4 | 6817 | 5571 |
| Su(var)3-9 | 2 | 20.1 | 9.77 | 5761 | 5617 |
| bel | 1 | 3.87 | 1.3 | 1601 | 5449 |
| bel | 2 | 4.28 | 2.01 | 6515 | 6162 |
| Polr3C | 1 | 8.31 | 9.46 | 5054 | 5689 |
| Polr3C | 2 | 2.33 | 17.4 | 5833 | 5424 |
| CG14339 | 1 | 25.6 | 5.64 | 6092 | 6348 |
| CG14339 | 2 | 8.47 | 3.45 | 6290 | 5539 |
| CG15035 | 1 | 11.2 | 20.3 | 5592 | 2662 |
| CrebB | 1 | 1.76 | 3.99 | 5579 | 5494 |
| CrebB | 2 | 7.1 | 4.66 | 5665 | 6079 |
| l(3)72Dr | 1 | 1.19 | 0.77 | 6313 | 6125 |
| CG31743 + CG34313 | 1 | 2.75 | 3.82 | 6288 | 6329 |
| CG31743 + CG34313 | 2 | 1.19 | 3.41 | 6781 | 6661 |
| CG15080 | 1 | 2.88 | 0.54 | 5733 | 6331 |
| CG15080 | 2 | – | 20.6 | 323 | 5630 |
